This test deals with full-length hepatitis C viral protein NS3•4A (Hepatitis C virus genotype 1a, UniProt P27958). The experiment in a line: HCV NS3 Peptide Cleavage Assay (Enzyme Assay 2), apparent Ki. An excerpt:
Using standard recombinant DNA techniques, a cDNA fragment encoding the sequence for NS3 and NS4A, residues Ala1027 to Cys1711 from the HCV sub-type strain 1a, containing an N-terminal hexa-histidine sequence, was cloned into the baculoviral transfer vector pVL1392 (Webb N R and Summers M D (1990) Expression of proteins using recombinant baculoviruses, Techniques 2:173-188). […] The transfected insect cells containing recombinant baculovirus clones were subsequently isolated by plaque purification. High-titer clonal baculovirus was routinely used to infect SD insect cells for protein production. In production, Sf9 cells were grown at 27° C. until they reached a density of 2.0×10^6 cells/ml. At this point, the insect cells were infected with virus. After 72 hours or when the cell viability was between 70-80% the culture was harvested and the cells were ready for purification. The NS3•4A protein (SEQ ID NO:1) was purified as follows. Cell paste was thawed in at least five volumes of Lysis Buffer (50 mM Na2HPO4 pH 8.0, 10% Glycerol, 300 mM NaCl, 5 mM β-mercaptoethanol, 0.2 mM PMSF, 2.5 μg/ml Leupeptin, 1.0 μg/mlE64, 2.0 μg/ml Pepstatin) per gram of cell paste. The cell paste was then homogenized on ice using a Dounce homogenizer. The cells were next mechanically disrupted by passing once through a microfluidizer (Microfluidics Corporation, Newton, Mass.), and the cell lysate was collected on ice. The cell lysates was centrifuged at 100,000×g for 30 minutes at 4° C. and the supernatants were decanted. Optionally, the pellets were resuspended in wash buffer (Lysis Buffer+0.1% β-octyl glucopyranoside), homogenized using a Dounce homogenizer and centrifuged at 100,000×g for 30 minutes at 4° C. Insoluble NS3° 4A was extracted from the pellets by resuspending in Extraction Buffer (Lysis Buffer+0.5% lauryl maltoside) using 2.5 ml/g cell paste. The mixture was homogenized using a Dounce homogenizer and mixed at 4° C. for three hours or more. The mixture was centrifuged at 100,000×g for 30 minutes at 4° C. The supernatants were decanted and pooled. The NS3•4A protein was further purified using Nickel-NTA metal affinity chromatography. Imidazole from a 2 M stock, pH 8.0, solution was added to the pooled supernatants so that the final concentration of imidazole was 10 mM. The supernatants were incubated batchwise overnight at 4° C. with Nickel-NTA affinity resin that had been pre-equilibrated with Lysis Buffer+10 mM imidazole. 1 ml of resin per 5 μg of expected NS3-4A was used. The resin was next settled by gravity or by centrifugation at 500×g for five minutes. The resin was next poured into a gravity flow column and washed with 10 or more column volumes of Nickel Wash Buffer (Lysis Buffer+0.1% lauryl maltoside+10 mM imidazole). The column was next eluted with three to four column volumes of Nickel Elution Buffer (Nickel Wash Buffer+300 mM imidazole). The elution fractions were collected on ice and evaluated using SDS-PAGE. To prevent NS3-4A proteolysis, 100 μM DFP protease inhibitor was added to gel samples before adding SDS sample buffer and boiling. The peak fractions were pooled and protein concentration was determined by measuring absorbance at 280 ηm and by dividing by the extinction coefficient (e), which for NS3•4A is 1.01. The NS3•4A was purified further using gel filtration chromatography. A Superdex 200 26/60 column was equilibrated with Superdex Buffer (20 mM HEPES pH 8.0, 10% glycerol, 300 mM NaCl, 10 mM β-mercaptoethanol, 0.05% lauryl maltoside) at a rate of 3 ml/min. The nickel purified NS3•4A was concentrated in a Centriprep 30 to greater than 2 mg/ml, if necessary, and was filtered through a 0.2 μm syringe filter and up to 10 ml was loaded onto the Superdex 200 column. After 0.3 column volumes passed through, 4-5 ml fractions were collected. Fractions were evaluated by SDS-PAGE. NS3•4A protein elutes in two peaks. Peak 1 contains aggregated NS3•4A and peak 2 contains active protein. The fractions of peak 2 were pooled, aliquoted and frozen at −70° C. […]

Amino acid sequences for entries named in this document (tags omitted). Chains listed by the source or under a name are the forms on record and can include a tag or linker. Residues count along the entry.
UniProt P27958, 1658-1711 partner limits assumed: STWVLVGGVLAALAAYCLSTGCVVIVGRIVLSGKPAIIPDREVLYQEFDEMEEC
UniProt P27958, 1027-1711 with tags or gaps with the stated changes: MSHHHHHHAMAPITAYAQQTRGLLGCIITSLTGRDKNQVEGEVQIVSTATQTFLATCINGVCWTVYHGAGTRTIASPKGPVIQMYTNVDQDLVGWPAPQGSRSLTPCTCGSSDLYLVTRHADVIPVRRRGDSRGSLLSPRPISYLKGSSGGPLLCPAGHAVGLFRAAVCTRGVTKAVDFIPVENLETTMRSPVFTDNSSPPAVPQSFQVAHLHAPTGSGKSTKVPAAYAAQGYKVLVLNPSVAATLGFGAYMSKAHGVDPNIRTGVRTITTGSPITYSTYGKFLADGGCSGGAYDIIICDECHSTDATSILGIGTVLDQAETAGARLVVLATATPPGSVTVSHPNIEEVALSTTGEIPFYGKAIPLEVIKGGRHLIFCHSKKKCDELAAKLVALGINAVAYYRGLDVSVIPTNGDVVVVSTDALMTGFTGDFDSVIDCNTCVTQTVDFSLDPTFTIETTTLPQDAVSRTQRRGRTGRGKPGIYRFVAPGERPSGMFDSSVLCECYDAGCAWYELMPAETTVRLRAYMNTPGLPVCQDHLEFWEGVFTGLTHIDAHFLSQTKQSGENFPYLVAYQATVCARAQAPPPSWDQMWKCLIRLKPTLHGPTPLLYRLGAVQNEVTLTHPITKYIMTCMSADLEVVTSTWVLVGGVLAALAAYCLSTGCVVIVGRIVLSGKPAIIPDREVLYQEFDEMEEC

The mark [1] stands for this setting: read-out: Enzyme Assay 2, HCV NS3 Peptide Cleavage Assay, apparent Ki.
[2] abbreviates: read-out: Enzyme Assay 2 (HCV NS3 Peptide Cleavage Assay) activity, apparent Ki class.

Structures are written as SMILES. Read-outs that look alike come from different tables or passages of the source. A value given as a limit tells only on which side of the number the result lay.

As for `CCC[C@H](NC(=O)[C@@H]1C[C@]2(CC(c3cc(Cl)c(OC)cc3OC)=NO2)CN1C(=O)[C@@H](NC(=O)[C@@H]1C[C@H]1c1ccccc1)C(C)(C)C)C(=O)C(=O)NC1CC1`, the Ki under setting [1] was less than 100 nM.
Still for that read-out and setting: the result for `CCC[C@H](NC(=O)[C@@H]1C[C@]2(CC(c3cc(C)c(OCC)c(C)c3)=NO2)CN1C(=O)[C@@H](NC(=O)[C@@H]1C[C@H]1c1ccccc1)C(C)(C)C)C(=O)C(=O)NC1CC1` reads less than 100 nM; that for `CNC(=O)C(=O)[C@H](CC1CC1)NC(=O)[C@@H]1C[C@]2(CC(c3cc(C)c(OC)c(C)c3)=NO2)CN1C(=O)[C@@H](NC(=O)[C@H]1C[C@@H]1c1ccccc1)C(C)(C)C`, less than 100 nM.
Regarding `CCC[C@H](NC(=O)[C@@H]1C[C@]2(CC(c3cc(Cl)ccc3OC)=NO2)CN1C(=O)[C@@H](NC(=O)CC(C)(C)C)C(C)(C)C)C(=O)C(N)=O`, the Ki under setting [2] was less than 100 nM.
`CCC[C@H](NC(=O)[C@@H]1C[C@]2(CC(c3cc(Cl)c(OCC)cc3OC)=NO2)CN1C(=O)[C@@H](NC(=O)OC1CCCC1)C(C)(C)C)C(=O)C(=O)NC`: the Ki under setting [1] was less than 100 nM.
For `COc1c(C)cc(C2=NO[C@]3(C2)C[C@@H](C(=O)N[C@@H](CC2CC2)C(=O)C(N)=O)N(C(=O)[C@@H](NC(=O)CC(C)(C)C)C(C)(C)C)C3)cc1C`, the Ki under setting [2] was less than 100 nM.
As for `CCC[C@H](NC(=O)[C@@H]1C[C@]2(CC(c3cccc(Cl)c3)=NO2)CN1C(=O)[C@@H](NC(=O)[C@@H]1C[C@H]1CC(C)C)C(C)(C)C)C(=O)C(=O)NC`, under setting [1], the Ki was less than 100 nM.
The same measure, in the same setting: the result for `CNC(=O)C(=O)[C@H](CC1CC1)NC(=O)[C@@H]1C[C@]2(CC(c3cc(Cl)c(OC)cc3OC)=NO2)CN1C(=O)[C@@H](NC(=O)C1CC1)C(C)(C)C` reads less than 100 nM.
Take `CNC(=O)C(=O)[C@H](CC1CC1)NC(=O)[C@@H]1C[C@]2(CC(c3cc(C)c(OC)c(C)c3)=NO2)CN1C(=O)[C@@H](NC(=O)CC(C)(C)C)C(C)(C)C`: the Ki under setting [2] is less than 100 nM.
On the same count and under the same terms, for `CCC[C@@H](NC(=O)[C@@H]1C[C@]2(CC(c3cc(C)c(OC)c(C)c3)=NO2)CN1C(=O)[C@@H](NC(=O)CC1CCCCC1)C(C)(C)C)C(=O)C(=O)NC1CC1` the value was 100 to 500 nM.
As to `CCC[C@H](NC(=O)[C@@H]1C[C@]2(CC(c3cccc(Cl)c3)=NO2)CN1C(=O)[C@@H](NC(=O)CC1CCCCCC1)C(C)(C)C)C(=O)C(=O)NC`, the Ki under setting [2] was less than 100 nM.
On to `CCC[C@H](NC(=O)[C@@H]1C[C@]2(CC(c3cc(Cl)c(OCC)cc3OC)=NO2)CN1C(=O)[C@@H](NC(=O)OC1CCCC1)C(C)(C)C)C(=O)C(=O)NC1CC1`, for which the Ki under setting [1] was less than 100 nM.
Still for that read-out and setting: the result for `CCC[C@H](NC(=O)[C@@H]1C[C@]2(CC(NCc3ccccc3)=NO2)CN1C(=O)[C@@H](NC(=O)OC1CCCC1)C(C)(C)C)C(=O)C(=O)NC1CC1` reads less than 100 nM; that for `CCNC(=O)C(=O)[C@H](CC1CC1)NC(=O)[C@@H]1C[C@]2(CC(c3cc(C)c(OC)cc3OC)=NO2)CN1C(=O)[C@@H](NC(=O)[C@@H]1C[C@H]1c1ccccc1)C(C)(C)C`, less than 100 nM.
On to `CCC[C@H](NC(=O)[C@@H]1C[C@]2(CC(c3cc(C)c(OCC)c(Cl)c3)=NO2)CN1C(=O)[C@@H](NC(=O)OC(C)(C)C)C(C)(C)C)C(=O)C(=O)NC1CC1`, for which the Ki under setting [2] was less than 100 nM.
Regarding `CCC[C@H](NC(=O)[C@@H]1CC2(CC(c3cnc(OC)nc3OC)=NO2)CN1C(=O)[C@@H](NC(=O)OC1CCCC1)C(C)(C)C)C(=O)C(=O)NC` (some centres unmarked), under setting [2], the Ki lay within 100 to 500 nM.
For the compound `CCC[C@H](NC(=O)[C@@H]1C[C@]2(CC(c3cccc(Cl)c3)=NO2)CN1C(=O)[C@@H](NC(=O)[C@@H]1CC12CCOCC2)C(C)(C)C)C(=O)C(N)=O`, the Ki under setting [1] is less than 100 nM.
Regarding `CCC[C@H](NC(=O)[C@@H]1C[C@]2(CC(c3nccc4ccccc34)=NO2)CN1C(=O)[C@@H](NC(=O)CC1CCCCC1)C(C)(C)C)C(=O)C(=O)NC1CC1`, the Ki under setting [2] was less than 100 nM.
For `CNC(=O)C(=O)[C@H](CC1CC1)NC(=O)[C@@H]1C[C@]2(CC(c3cccc4cccnc34)=NO2)CN1C(=O)[C@@H](NC(=O)CC1CCCCCC1)C(C)(C)C`, the Ki under setting [2] was less than 100 nM.
The same measure, in the same setting: for `COc1cc(OC)c(C2=NO[C@]3(C2)C[C@@H](C(=O)N[C@@H](CC2CC2)C(=O)C(N)=O)N(C(=O)[C@@H](NC(=O)[C@H]2C[C@@H]2c2ccccc2)C(C)(C)C)C3)cc1Cl` the value was less than 100 nM.
